Laboratory results taken from article PMC5086656, “Crystal Structure of Ribosome-Inactivating Protein Ricin A Chain in Complex with the C-Terminal Peptide of the Ribosomal Stalk Protein P2” (2016).

Legend:
trichosanthin (TCS) = conditions: ref [12],[13]; cited from earlier work
[1] = tested on: active form of maize RIP (MOD); conditions: ref [14]; cited from earlier work
Shiga toxin (Stx) 1 = conditions: ref [15],[16]; cited from earlier work
RTA [2] = target: T1, RTA (Ricinus communis, UniProt P02879); assay: Isothermal titration calorimetry (ITC) of P2 variant peptides with RTA; conditions: for N / Kd: ITC-200, 25 °C, 20 mM Tris-Cl, 100 mM NaCl, pH 7.0, one-site binding model; for N: 600 µM P2 variant peptide into 35 µM RTA; for Kd: read-out: binding affinity, KD, 20 x 2 µL of 600 µM P2 variant peptide into 200 µL cell with 35 µM RTA
RTA [3] = target: T1, RTA; assay: Co-crystal structure of RTA with P2 peptide; conditions: 1.6 Å, only last 6 residues (GFGLFD) fitted

Row | SMILES | interaction with trichosanthin (TCS) (trichosanthin (TCS)) | interaction with active form of maize RIP (MOD) [1] | interaction with Shiga toxin (Stx) 1 (Shiga toxin (Stx) 1) | N (RTA [2]) | change of RTA binding affinity (KD) of C6 compared with C11 (RTA [2]; ITC, C6 compared to C11) | Kd (RTA [2]) [µM] | stoichiometry of complex with RTA in crystal (RTA [3])
1 | CSCC[C@H](NC(=O)[C@H](CC(=O)O)NC(=O)[C@H](CC(=O)O)NC(=O)[C@H](CC(=O)O)NC(=O)[C@@H](N)CO)C(=O)NCC(=O)N[C@@H](Cc1ccccc1)C(=O)NCC(=O)N[C@@H](CC(C)C)C(=O)N[C@@H](Cc1ccccc1)C(=O)N[C@@H](CC(=O)O)C(=O)O | interacts with several RIPs | interacts with several RIPs | interacts with several RIPs | 1.0±0.4 | – | – | –
2 | CC(C)C[C@H](NC(=O)CNC(=O)[C@H](Cc1ccccc1)NC(=O)CN)C(=O)N[C@@H](Cc1ccccc1)C(=O)N[C@@H](CC(=O)O)C(=O)O | – | – | – | – | decreasing eight-fold | 18.8 | –
3 | CSCC[C@H](NC(=O)[C@H](CC(=O)O)NC(=O)[C@@H](N)CC(=O)O)C(=O)NCC(=O)N[C@@H](Cc1ccccc1)C(=O)NCC(=O)N[C@@H](CC(C)C)C(=O)N[C@@H](Cc1ccccc1)C(=O)N[C@@H](CC(=O)O)C(=O)O | – | – | – | 1.1±0.1 | – | 3.4 | 1:1 complex

Structures were worked out from names or drawings and are uncertain.
